Data as given in patent US10119079B2, “Composition for removal of sulfur-containing compounds” (KURARAY CO., LTD., priority 2014, dated 2018).
Values joined by “and” are separate entries in the source; they are usually repeats but may differ in a detail not shown here. Equal values may be shown once.

Test system: activated sludge
Assay: Biodegradability test (OECD Test Guidelines 301C, JIS K6950)
Details: for biodegradation ratio for 28 days (average) / biodegradation ratio for 28 days (individual runs, n=2): 25° C.; for degradability decision (60% or more = good degradable): 28 days
[1] = high-concentration group (100 ppm)
[2] = low-concentration group (30 ppm)

In the case of `O=CCCCC=O` [Glutaraldehyde, glutaraldehyde], the “biodegradation ratio for 28 days (average)” value [1] is reported as 52.6%, the “biodegradation ratio for 28 days (individual runs, n=2)” value [1] is reported as 52.7% and 52.5% and the “degradability decision (60% or more = good degradable)” value [1] is reported as “partial degradability (hardly degradable)”. The “biodegradation ratio for 28 days (average)” value [2] was 78.0%, the “biodegradation ratio for 28 days (individual runs, n=2)” value [2] was 78.5% and 77.5% and the “degradability decision (60% or more = good degradable)” value [2] was “good degradability”.
